Measurements as given in US20090221500A1 (ANGELICA THERAPEUTICS, published 2009).

Molecular target: elongation factor-2 (EF-2) (rabbit (reticulocyte lysate))
Test: cell-based or functional assay

B1: DT382 (G53E): Null construct (enzyme)
chain: not shown
- IC50 (ng/12.5 µl), inhibition of protein synthesis in IVTT: 46.6 ng/12.5 µl
